In patent US20080020973A1 (priority 2004, published 2008):

Experiments:
Assay type in all cases: biochemical
[1] = molecular target: human topoisomerase type IB (hTopo) (Homo sapiens, UniProt P11387); experiment: Plasmid supercoil relaxation (SC release) assay, hTopo; details: [I]human/[I]vaccinia giving similar inhibition in the supercoil release assay
[2] = molecular target: T1, vaccinia DNA topoisomerase IB (vTopo) (Vaccinia virus, UniProt P68698); experiment: Molecular beacon RNase assay (18U-FAM/18-DAB), high-throughput inhibitor screen; details: @0.1 μM
[3] = molecular target: T1, vaccinia DNA topoisomerase IB (vTopo); experiment: Plasmid supercoil relaxation (SC release) assay, vTopo; details: vaccinia enzyme, @0.006 μM

## O=[As](O)(O)c1ccc(-c2cccc([As](=O)(O)O)c2)cc1
[1]
  Selectivity: 3330
[2]
  % Inhibition (RNAse HTS): 100% @0.1 μM
[3]
  % Inhibition (plasmid SC release assay): 50% @0.006 μM
